Measurements reported in patent publication US10039758B2 (priority 2014, dated 2018).

Test system: PA
Experiment: Biochemical assay of PA binding and internalization (immunoblot)
Format: cell-based, mouse
Details: RAW264.7, 1 ug/mL PA at 37° C. 1 hour, compared to PA only (FIG. 15)

`CCN(CC)Cc1cc(Nc2ccnc3cc(Cl)ccc23)ccc1O` [AQ, Amodiaquine] was tested, and the “abundance of SDS-resistant PA-oligomers” value was “higher, rather than lower, abundance of SDS-resistant PA-oligomers”.
